Patent publication US6713043B2 (priority 1996, dated 2004)

Tested on: ts envM E. coli mutant ts100 with pBSK:2.1 L. pneumophila insert
Test: Zone of inhibition, ts envM E. coli complemented with L. pneumophila DNA insert

Cc1ccc(C)c(OCCCC(C)(C)C(=O)O)c1 [GFZ, Gemfibrozil]
sensitivity to GFZ (zone of inhibition) (permissive temperature 30° C., with or without the insert): not sensitive | sensitivity to GFZ (zone of inhibition) (restrictive conditions 42° C., low osmolarity LB plates, 5 mg GFZ disks): sensitive
